From patent US20210269512A1 (NOVOBIND LIVESTOCK THERAPEUTICS, published 2021)

T1: NetB (necrotic enteritis toxin B) (Clostridium perfringens)
T1 chain: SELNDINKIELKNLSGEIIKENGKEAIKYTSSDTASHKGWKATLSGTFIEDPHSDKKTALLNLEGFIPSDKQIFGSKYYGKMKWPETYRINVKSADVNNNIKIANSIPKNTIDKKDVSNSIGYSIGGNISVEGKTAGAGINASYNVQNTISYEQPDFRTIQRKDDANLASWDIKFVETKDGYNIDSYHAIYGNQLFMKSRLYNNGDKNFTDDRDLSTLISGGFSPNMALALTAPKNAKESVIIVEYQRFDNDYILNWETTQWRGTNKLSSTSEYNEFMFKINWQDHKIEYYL

T2: Cpa (phospholipase) (Clostridium perfringens, UniProt P0C216 29-398)
T2 sequence: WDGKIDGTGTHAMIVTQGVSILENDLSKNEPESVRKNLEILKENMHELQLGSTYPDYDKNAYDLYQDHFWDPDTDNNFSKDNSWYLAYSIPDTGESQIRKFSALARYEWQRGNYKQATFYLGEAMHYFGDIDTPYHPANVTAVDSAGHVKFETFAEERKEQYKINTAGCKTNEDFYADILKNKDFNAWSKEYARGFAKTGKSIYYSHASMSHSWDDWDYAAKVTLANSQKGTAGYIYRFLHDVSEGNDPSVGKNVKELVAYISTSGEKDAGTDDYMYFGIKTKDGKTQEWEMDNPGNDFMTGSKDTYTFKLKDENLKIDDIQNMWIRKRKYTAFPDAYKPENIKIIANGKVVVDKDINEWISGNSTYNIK


Columns and labels:
[1] = molecular target: T1, NetB (necrotic enteritis toxin B); assay: cell-based or functional assay
[2] = molecular target: T2, Cpa (phospholipase); assay: cell-based or functional assay

Binder	IC50 < 50 nM, NetB cytotoxicity on LMH cells (LDH) [1]	IC50 < 1 µM, NetB cytotoxicity on LMH cells (LDH) [1]	Cpa lecithinase activity reduced by >40% at 1 µM [2]
NBX0501 (VHH) VHH: QVQLQESGGGLVQAGGSLRLSCAASGSIFSINVMGWYRQAPGKQRDLVALITSGGSTTYADSVKGRFTISRDNAKNTVYLQMNSLKPEDTAVYYCNAAQSRTSWLFPDEYDYWGQGTQVTVSS	< 50 nM	< 1000 nM	–
NBX0338 (VHH) VHH: QVQLQESGGGLVQAGDSLRLSCATSGRSFSSYTMGWFRQTPGKEREFVAAISWSGTYYTDSVKGRFTISRDNAKNTVYLQMNSLKPEDTAVYYCAVGSRRLYYSSDINYWGQGTQVTVSS	–	–	> 40%
NBX0329 (VHH) VHH: QVQLQESGGGLVQAGGSLRLSCATSGLTVSRYTMGWFRQTPGKDREFVAAISWSGTYYTDSVKGRFTISVDNAKNMVYLQMNSLKPEDTAVYYCAAGSRRLYYSNDINYWGQGTQVTVSS	–	–	> 40%
NBX0339 (VHH) VHH: QVQLQESGGGLVQAGDSLRLSCATSGLTVSRYTMGWFRQTPGKEREFVAAISWSGTYYTDSVKGRFTISRDNAKNMVYLQMNSLKPEDTAVYYCAAGSRRLHYSSDINYWGQGTQVTVSS	–	–	> 40%
NBX0545 (VHH) VHH: QVQLQESGGGLVQAGGSLRLSCAASRTTFRVGTMAWFRQDPGKQRELVAGITSGGSTNYADSVKGRFTISRDNAKNTIYLQMNSLKPEDTGIYVCFANIVDRPVSWGQGTQVTVSS	< 50 nM	< 1000 nM	–
NBX0502 (VHH) VHH: QVQLQESGGGLVQAGGSLRLSCAASGRTFSIYAMGWFRQAPGKEREFVAVINRGGGTTTYADSVKGRFTISRDNTKNTVSLQMNSLKPDDTAVYYCAADRVTDTYYYLNPESYDYWGQGTQVTVSS	≥ 50 nM	≥ 1000 nM	–
NBX0504 (VHH) VHH: QVQLQESGGGLVQAGGSLRLSCAASGRTFSIYAMGWFRQAPGKEREFVAVINRSGGTTTYADSVKGRFTISRDNTKNTVSLQMNSLKPDDTAVYYCAADRVTDTYYYLNPESYDYWGQGTQVTVSS	≥ 50 nM	≥ 1000 nM	–
NBX0511 (VHH) VHH: QVQLQESGGGLVQPGGSLRLSCAASGFTFSRNYMSWVRQAPGKGLEWVGSIYSDDSTNYAPSVKGRFTISRDNAANTLYLQMNSLKSEDTAVYYCSKEGGLRGQGTQVTVSS	< 50 nM	< 1000 nM	–
NBX0539 (VHH) VHH: QVQLQESGGGLVQAGGSLRLSCVASGSGSRIGFMAWHRQTPGRQRELVAVINRTGATRYADSVKDRFTISRDNAKNTVYLQMNDLKPDDTALYYCFASVVDAGTYWGQGTQVTVSS	< 50 nM	< 1000 nM	–
NBX0546 (VHH) VHH: QVQLQQSGGGAVQAGGSLTLSCVASGSGSRIGLMAWYRQTPGRQRELVAVIKGTGTTRYADSVKDRFTISRDNAKNTMYLQMNDLKPDDTALYYCFASVLGAGTYWGQGTQVTVSS	< 50 nM	< 1000 nM	–
NBX0510 (VHH) VHH: QVQLQESGGGLVQAGGSLRLSCVASGSGSRINYMAWHRQTPGRQRELVAVINRTGAAKYADSVKDRFTVSRDNAENTVYLQMNDLKPDDTAVYYCWASYLGAGTYWGQGIQVTVSS	< 50 nM	< 1000 nM	–
NBX0508 (VHH) VHH: QVQLQESGGGLVQAGGSLRLSCVASGSGSRINYMAWHRQTPGRQRELVAVINRTGAANYARSVKDRFTISRDNAKNTVYLQMNDLKPDDTAIYYCFASYLGAGAYWGQGTQVTVSS	≥ 50 nM	< 1000 nM	–
NBX0542 (VHH) VHH: QVQLQESGGGLVQAGGSLRLSCAASRNIYGINVIAWYRQAPGKQREMVARSANGGTTRYADSVKGRFTISRDNVKNIVYLQMSSLKPEDTAAYYCKAELYTLQHNYEYWGQGTQVTVSS	< 50 nM	< 1000 nM	–
NBX0304 (VHH) VHH: QVQLQESGGGLVQTGDSLRLSCTASGGTFSSYTMGWYRQAPGKGREFVGSITWNSEVTYYADSVKGRFTISRDNAKNMMNLQMNSLKPEDTAVYYCAAGRAGSGFTSWGQGTQVTVSS	≥ 50 nM	≥ 1000 nM	–
NBX0544 (VHH) VHH: QVQLQESGGGLVQAGGSLRLSCAASGRVLSINAMGWYRQAPGKRREMVARITNGGSTNYAGSVKGRFTISRENTKNTMYLQMNSLKPEDTAVYYCLAEERPYYGGPLEYWGQGTQVTVSQ	< 50 nM	< 1000 nM	–
NBX0378 (VHH) VHH: QVQLQESGGGLVQAGGSLRLSCAASASIMSIRVMGWYRQAPGKQRELVATMSRGNTINYADSVRGRFTISRDNAKSTVYLQMNSLKPEDTAVYYCAALLDSYYWGQGTQVTVSS	≥ 50 nM	< 1000 nM	–
NBX0379 (VHH) VHH: QVQLQESGGGLVQAGGSLRLSCVVSGSIMSIRVMGWYRQAPGKQRELVATMSRGNTINYADSVRGRFTISRDNAKSTVYLQMNSLKPEDTAVYYCAALLDSYYWGQGTQVTVSS	≥ 50 nM	< 1000 nM	–
NBX0509 (VHH) VHH: QVQLQESGGGLVQAGGSLRLSCAASGRTFSTYTVGWFRQAPGKEREFVASITWNGGTILYADSVKGRFTISRDNAKNTVLLQMNSLKPEDTAVYYCVMGAAGQGWRYWGQGTQVTVSS	≥ 50 nM	≥ 1000 nM	–
NBX0505 (VHH) VHH: QVQLQESGGGLVQAGGSLRLSCAASGMSFSLGTIYWYRQAPGKQREFVAFITNADTTMYANSVKGRFTISRDNGKNTVFLLMNNLKPEDSAVYYCNTATSWGQGTQVTVSS	< 50 nM	< 1000 nM	–
NBX0305 (VHH) VHH: QVQLQESGGGLVQPGGSLRLSCTASGFTLDKYAVGWFRQAPGKEREGVSCISSIDDSTDYVDSVKGRFTISRDNAKNAVYLQMNSLKPEDTAVYNCMTIPLPYGSTCDIPSRSDLLAINYWGKGTLVTVSS	< 50 nM	< 1000 nM	–
NBX0541 (VHH) VHH: QVQLQQSGGGSVQTGGSLALSCAASGTISIFDPMGWYRQAPGKQRELVASISEGSTNYANSVKGRFTISRDNAKKTVSLQMNSLEPADTAVYYCRLSRYYNSNIYWGQGTQVTVSS	≥ 50 nM	< 1000 nM	–
NBX0543 (VHH) VHH: QVQLQESGGGSVQTGGSLALSCVASGTLSLFDPMGWYRQAPGKQRELVASISGLSTNYANSVKGRFTISRDDAKKTVSLQMNSLEPADTAVYYCHLSRYYNSNIYWGQGTQVTVSS	≥ 50 nM	< 1000 nM	–
NBX0547 (VHH) VHH: QVQLQESGGGSVQTGGSLALSCAASGTISLFDSMGWYRQAPGKQRELVASITEGSTNYANSVKGRFTISRDNAKKTVSLQMNSLEPADTAVYYCRLSRYYNSNIYWGQGTQVTVSS	≥ 50 nM	< 1000 nM	–
NBX0540 (VHH) VHH: QVQLQESGGGLVQPGGSLRVSCAASGLTFSDYAMGWFRQAPGQEREFVARISLTAASTLYADSVRGRFTISRDNAKNTVYLQMNSLRPDDTAVYYCAAQGRILRGRGLFKASDYDYWGQGTQVTVSS	< 50 nM	< 1000 nM	–
